# Assay results taken from PMC4491657, “Design and Synthesis of Novel N-Arylsulfonyl-3-(2-yl-ethanone)-6-methylindole Derivatives as Inhibitors of HIV-1 Replication” (Pharmaceuticals, 2015).
# Test system: HIV-1 IIIB
# Assay: Syncytia assay (anti-HIV-1 activity in acutely infected C8166 cells)
# Format: cell-based
# Conditions: CC50 value/EC50 value
# Method: Cell line (C8166) and the laboratory-derived virus (HIV-1 IIIB) were obtained from the MRC, AIDS Reagent Project, London, UK. C8166 was maintained in RPMI-1640 supplemented with 10% heat-inactivated new born calf serum (Gibco, USA). The cells used in all experiments were in log-phase growth. The 50% HIV-1 IIIB tissue culture infectious dose (TCID50) in C8166 cells was determined and calculated by the Reed and Muench method. Virus stocks were stored in small aliquots at −70 °C [11].
# In the presence of 100 μL of various concentrations of compounds, C8166 cells (4 × 10^5/mL) were infected with virus HIV-1IIIB at a multiplicity of infection (M.O.I) of 0.06. The final volume per well was 200 μL. Control assays were performed without the testing compounds in HIV-1IIIB infected and uninfected cultures. After 3 days of culture, the cytopathic effect (CPE) was measured by counting the number of syncytia. Percentage inhibition of syncytia formation was calculated and 50% effective concentration (EC50) was calculated. AZT (Sigma, USA) was used as a positive control. Therapeutic index (TI) = CC50/EC50 [13].
row,Structure (SMILES),TI (in vitro therapeutic index)
1,"Cc1cn([C@H]2C[C@H](N=[N+]=[N-])[C@@H](CO)O2)c(=O)[nH]c1=O [AZT, 3'-azido-3'-deoxythymidine, reference compound]",351801.98
2,"Cc1ccc2c(C(=O)CN3CCOCC3)cn(S(=O)(=O)c3ccccc3)c2c1 [Compound 4b, N-Phenylsulfonyl-3-[2-morpholinoethanone]-6-methylindole]",> 8.87
3,"CCCCNCC(=O)c1cn(S(=O)(=O)c2ccccc2)c2cc(C)ccc12 [Compound 4e, N-Phenylsulfonyl-3-[2-butylaminoethanone]-6-methylindole]",1.46
4,"Cc1ccc2c(C(=O)CN(C(C)C)C(C)C)cn(S(=O)(=O)c3ccccc3)c2c1 [Compound 4d, N-Phenylsulfonyl-3-[2-diisopropylaminoethanone]-6-methylindole]",12.26
5,"Cc1ccc2c(C(=O)CN3CCCCC3)cn(S(=O)(=O)c3ccccc3)c2c1 [Compound 4a, N-Phenylsulfonyl-3-[2-piperidinylethanone]-6-methylindole]",> 15.38 and 15.38
6,"CCc1ccc(S(=O)(=O)n2cc(C(=O)CSc3nnc(-c4ccccc4)o3)c3ccc(C)cc32)cc1 [Compound 6, N-(p-Ethyl)phenylsulfonyl-3-[2-(5-phenyl-1,3,4-oxadiazole-2-yl-thio)ethanone]-6-methylindole]",66.95
7,"CCc1ccc(S(=O)(=O)n2cc(C(=O)CN3CCOCC3)c3ccc(C)cc32)cc1 [Compound 4f, N-(p-Ethyl)phenylsulfonyl-3-[2-morpholinoethanone]-6-methylindole]",> 49.77
8,"Cc1ccc2c(C(=O)CN3CCCC3)cn(S(=O)(=O)c3ccccc3)c2c1 [Compound 4c, N-Phenylsulfonyl-3-[2-pyrrolidinoethanone]-6-methylindole]",2.12

# Several values for one entry are separate records, joined by “and”; a condition that tells them apart may be missing. Equal entries are not always repeated.
